# Experiments:
# [1] = system: Magnaporthe grisea; assay: Rice blast disease pot test (Test Example A); conditions: for Rice blast disease pot test (control value): 250 ppm sprayed, 2.5 ml/pot, rice variety Sachikaze, degree of disease development 6 to 8 days after inoculation
# Description: Seeds of test plants (rice variety: Sachikaze) were planted and then cultivated until the second leaves appeared. In the test, each synthesized compound was dissolved in a dimethyl sulfoxide-methanol mixed solution (volume ratio: 9/1) and diluted into a concentration of 250 ppm with ion exchange water to obtain a chemical. The obtained chemical was sprayed to the test plants (2.5 ml/pot). After drying of the chemical, the plants were inoculated by spraying of 3 to 5 × 10^4 organisms/ml of a conidium suspension of Magnaporthe grisea. The plants thus inoculated were left at room temperature of 23 to 25°C in a moist chamber for approximately 24 hours to promote the onset of the disease. The degree of disease development was investigated 6 to 8 days after inoculation, and effects of the chemical were evaluated.
# (§1) The degrees of disease development in these Test Examples were evaluated by 0.05 when the degree of disease development in a plant having no onset of the disease was defined as 0 and the degree of disease development in a plant in a group without chemical treatment was defined as 3. From the degree of disease development, a control value was calculated according to the following expression.
# (§2) Control value = 100{1−(n/3)} [formula] N = Degree of disease development in each chemical treatment group.
# [2] = system: Botrytis cinerea; assay: Tomato gray mold pot test (Test Example B); conditions: for Tomato gray mold pot test (control value): 250 ppm sprayed, 2.5 ml/pot, tomato variety Oogata Fukuju, degree of disease development 2 to 3 days after inoculation
# Description: Seeds of test plants (tomato variety: Oogata Fukuju) were planted and then cultivated until three first leaves appeared. In the test, each compound was dissolved in a dimethyl sulfoxide-methanol mixed solution (volume ratio: 9/1) and diluted into a concentration of 250 ppm with ion exchange water to obtain a chemical. The obtained chemical was sprayed to the test plants (2.5 ml/pot). After drying of the chemical, the plants were inoculated by spraying of 3 to 6 × 10^5 organisms/ml of a conidium suspension of Botrytis cinerea. The plants thus inoculated were left at room temperature of 23 to 25°C in a moist chamber for approximately 48 hours to promote the onset of the disease. The degree of disease development was investigated 2 to 3 days after inoculation, and effects of the chemical were evaluated.
# as §1, §2
# [3] = system: Gray mold fungus (Botrytis cinerea); assay: Gray mold anti-germ test (Test Example C); conditions: for Gray mold anti-germ test (rate of inhibition): 50 ppm/well, Czapek-dox broth, 25°C for 3 days, absorbance 600 nm
# Description: (§3) Gray mold fungus (Botrytis cinerea) Conidia were suspended in Czapek-dox broth and a suspension of 1 × 10^5 spores were prepared. The prepared spore suspension was seeded at 100 µl/well to a 96-well multiplate. In the test, each compound was dissolved in a dimethyl sulfoxide-methanol mixed solution (volume ratio: 9/1) and dispensed at 50 ppm/well. The absorbance of each well was measured at a wavelength of 600 nm using a photometer. The multiplate was incubated at 25°C for 3 days, followed by absorbance measurement again. The difference in absorbance between the treatment day and 3 days later was calculated, and the rate of inhibition was calculated from the ratio between the treatment group and the non-treatment group.
# [4] = system: Fusarium blight fungus (Fusarium graminearum); assay: Fusarium blight anti-germ test (Test Example D); conditions: for Fusarium blight anti-germ test (rate of inhibition): 50 ppm/well, Czapek-dox broth, 25°C for 3 days, absorbance 600 nm
# Description: as §3, with “Fusarium blight” for “Gray mold”, “(Fusarium graminearum)” for “(Botrytis cinerea)”
# [5] = system: Anthracnose fungus (Glomerella cingulata); assay: Anthracnose anti-germ test (Test Example E); conditions: for Anthracnose anti-germ test (rate of inhibition): 50 ppm/well, Czapek-dox broth, 25°C for 3 days, absorbance 600 nm
# Description: as §3, with “The” for “Gray mold fungus (Botrytis cinerea) Conidia were suspended in Czapek-dox broth and a suspension of 1 × 10^5 spores were prepared. The”
# [6] = system: Speckled leaf blotch fungus (Septoria tritici); assay: Speckled leaf blotch anti-germ test (Test Example F); conditions: for Speckled leaf blotch anti-germ test (rate of inhibition): 50 ppm/well, Czapek-dox broth, 25°C for 3 days, absorbance 600 nm
# Description: as §3, with “Speckled leaf blotch” for “Gray mold”, “(Septoria tritici)” for “(Botrytis cinerea)”
SMILES,Rice blast disease pot test (control value) [1],Tomato gray mold pot test (control value) [2],Gray mold anti-germ test (rate of inhibition) [3],Fusarium blight anti-germ test (rate of inhibition) [4],Anthracnose anti-germ test (rate of inhibition) [5],Speckled leaf blotch anti-germ test (rate of inhibition) [6],"control value ([1]; Test Example A, rice blast disease pot test)","control value ([2]; Test Example B, tomato gray mold pot test)","rate of inhibition ([3]; Test Example C, gray mold anti-germ test)","rate of inhibition ([4]; Test Example D, Fusarium blight anti-germ test)","rate of inhibition ([5]; Test Example E, anthracnose anti-germ test)","rate of inhibition ([6]; Test Example F, speckled leaf blotch anti-germ test)"
Cc1c(Cl)cnc2c1ncn2C1=NC(C)(C)Sc2c(F)cccc21,H (H represents a control value or rate of inhibition of larger than 50%),H (H represents a control value or rate of inhibition of larger than 50%),H (H represents a control value or rate of inhibition of larger than 50%),H (H represents a control value or rate of inhibition of larger than 50%),H (H represents a control value or rate of inhibition of larger than 50%),L (L represents a control value or rate of inhibition of 50% or less),–,–,–,–,–,–
CC(=O)C1(C)N=C(n2cnc3c(C)cccc32)c2cccc(C)c2O1 (stereo not drawn),L (L represents a control value or rate of inhibition of 50% or less),H (H represents a control value or rate of inhibition of larger than 50%),H (H represents a control value or rate of inhibition of larger than 50%),L (L represents a control value or rate of inhibition of 50% or less),H (H represents a control value or rate of inhibition of larger than 50%),L (L represents a control value or rate of inhibition of 50% or less),–,–,–,–,–,–
CCOC(=O)CC1(C)N=C(n2cnc3c(C)c(C)ccc32)c2ccc(C)cc2O1 (stereo not drawn),H (H represents a control value or rate of inhibition of larger than 50%),H (H represents a control value or rate of inhibition of larger than 50%),H (H represents a control value or rate of inhibition of larger than 50%),H (H represents a control value or rate of inhibition of larger than 50%),H (H represents a control value or rate of inhibition of larger than 50%),L (L represents a control value or rate of inhibition of 50% or less),–,–,–,–,–,–
Cc1cccc2c1OC(C)(C)N=C2n1cnc2c(C(F)(F)F)cccc21,L (L represents a control value or rate of inhibition of 50% or less),H (H represents a control value or rate of inhibition of larger than 50%),H (H represents a control value or rate of inhibition of larger than 50%),L (L represents a control value or rate of inhibition of 50% or less),H (H represents a control value or rate of inhibition of larger than 50%),L (L represents a control value or rate of inhibition of 50% or less),–,–,–,–,–,–
Cc1cccc2c(C3=NC(C)(C)Sc4c(F)cccc43)cnn12,–,–,–,–,–,–,H (H represents a control value or rate of inhibition of larger than 50%),H (H represents a control value or rate of inhibition of larger than 50%),H (H represents a control value or rate of inhibition of larger than 50%),H (H represents a control value or rate of inhibition of larger than 50%),H (H represents a control value or rate of inhibition of larger than 50%),H (H represents a control value or rate of inhibition of larger than 50%)
Cc1ccc2c(c1)OC1(CCC1)N=C2n1cnc2c(C)c(C)ccc21,H (H represents a control value or rate of inhibition of larger than 50%),H (H represents a control value or rate of inhibition of larger than 50%),H (H represents a control value or rate of inhibition of larger than 50%),H (H represents a control value or rate of inhibition of larger than 50%),H (H represents a control value or rate of inhibition of larger than 50%),H (H represents a control value or rate of inhibition of larger than 50%),–,–,–,–,–,–
Cc1cc(C)c2c(c1)C(n1cnc3c(C)c(C)ccc31)=NC(C)(C)O2,H (H represents a control value or rate of inhibition of larger than 50%),H (H represents a control value or rate of inhibition of larger than 50%),H (H represents a control value or rate of inhibition of larger than 50%),H (H represents a control value or rate of inhibition of larger than 50%),H (H represents a control value or rate of inhibition of larger than 50%),H (H represents a control value or rate of inhibition of larger than 50%),–,–,–,–,–,–
Cc1ccc2c(c1)OC(C)(CC(=O)O)N=C2n1cnc2c(C)c(C)ccc21 (stereo not drawn),H (H represents a control value or rate of inhibition of larger than 50%),L (L represents a control value or rate of inhibition of 50% or less),L (L represents a control value or rate of inhibition of 50% or less),L (L represents a control value or rate of inhibition of 50% or less),L (L represents a control value or rate of inhibition of 50% or less),L (L represents a control value or rate of inhibition of 50% or less),–,–,–,–,–,–
Cc1ccc2c(ncn2C2=NC(C)(C)[S+]([O-])c3ccccc32)c1C (stereo not drawn),H (H represents a control value or rate of inhibition of larger than 50%),H (H represents a control value or rate of inhibition of larger than 50%),H (H represents a control value or rate of inhibition of larger than 50%),L (L represents a control value or rate of inhibition of 50% or less),H (H represents a control value or rate of inhibition of larger than 50%),L (L represents a control value or rate of inhibition of 50% or less),–,–,–,–,–,–
Cc1ccc2c(ncn2C2=NC(C)(C)Oc3c(F)cccc32)c1C,H (H represents a control value or rate of inhibition of larger than 50%),H (H represents a control value or rate of inhibition of larger than 50%),H (H represents a control value or rate of inhibition of larger than 50%),H (H represents a control value or rate of inhibition of larger than 50%),H (H represents a control value or rate of inhibition of larger than 50%),L (L represents a control value or rate of inhibition of 50% or less),–,–,–,–,–,–

# Source: EP4821928A1, “BICYCLIC HETEROCYCLIC COMPOUND AND FUNGICIDE FOR AGRICULTURAL AND HORTICULTURAL USE CONTAINING SAME AS ACTIVE INGREDIENT” (dated 2026)
